Data on 4 compounds can be found in ChEMBL document CHEMBL3813673, “Bistacrine derivatives as new potent antimalarials” (Bioorg Med Chem, 2016).

Molecules are shown by their SMILES. pIC50: −log10 of the molar value.

Series [1] deals with Plasmodium falciparum. Put plainly: Antimalarial activity against chloroquine-sensitive ring-stage Plasmodium falciparum 3D7 assessed as parasite viability after 72 hrs by malstat assay.
Series [2] concerns Plasmodium falciparum. The series can be described thus: Antimalarial activity against chloroquine-resistant Plasmodium falciparum Dd2 assessed as parasite viability after 72 hrs by malstat assay.
Series [3] in a line: Selectivity index, ratio of IC50 for mouse J774.1 cells to IC50 for chloroquine-sensitive ring-stage Plasmodium falciparum 3D7.
Series [4] in a line: Selectivity index, ratio of IC50 for mouse J774.1 cells to IC50 for ring-stage Plasmodium falciparum Dd2.
Series [5] is described as follows: Cytotoxicity against mouse J774.1 cells after 24 hrs by AlamarBlue based cytotoxicity assay. The class given is cell-based. (In general: Resazurin is reduced to fluorescent resorufin, in cell work by metabolically active cells.)
Series [6] in a line: Reversible inhibition of recombinant Plasmodium falciparum falcipain 2 assessed as hydrolysis of Cbz-Phe-Arg-AMC measured after 10 mins by spectrofluorometric method.

As a reminder, the pIC50 is the negative decadic logarithm of the IC50, by convention in mol/L.

Consider `c1ccc2c(NCCNc3c4c(nc5ccccc35)CCCC4)c3c(nc2c1)CCCC3`, for which the negative-log IC50 (pIC50) in series [1] was 6.40; in series [2], 5.21. Further, the Ratio IC50 in series [3] is 113; in series [4], 7.4.
`c1ccc2c(NCCCCCCCCCNc3c4c(nc5ccccc35)CCCC4)c3c(nc2c1)CCCC3`: the pIC50 is 7.30 in series [1], 5.74 in series [5], 6.82 in series [2] and 4.94 in series [6]. Moreover, the Ratio IC50 in series [3] was determined as 36; in series [4] it was 12.
As for `c1ccc2c(NCCCCNc3c4c(nc5ccccc35)CCCC4)c3c(nc2c1)CCCC3`, the pIC50 is 6.77 in series [1], 5.08 in series [5] and 5.86 in series [2]. The values for the Ratio IC50 in series [3] and in series [4] were 48.8 and 5.97, respectively.
Consider `c1ccc2c(NCCCNc3c4c(nc5ccccc35)CCCC4)c3c(nc2c1)CCCC3`, for which the negative logarithm of the IC50 (pIC50) in series [1] is 6.31; in series [2], 5.40. For the same compound, the Ratio IC50 was 86.9 in series [3] and 10.7 in series [4].
